Patent publication US20110166072, “Methods of treating αvβ3 integrin-associated diseases by administering polypeptides selective for αvβ3 integrin” (published 2011)

Key:
[1] = molecular target: platelet glycoprotein αIIbβ3 (on human platelets), human, P08514 32-1039; P05106 27-788; assay: cell-based or functional assay
[2] = molecular target: integrin αvβ3 (on rat osteoclast precursors), rat; assay: cell-based or functional assay

Row | Substance | Platelet aggregation IC50 [1] | Osteoclastogenesis IC50 [2]
1 | ARLDDL (rhodostomin variant ^48ARLDDL^53) | 10400 nM | 
2 | Pegylated RD (^48PRLDMP^53-5K) | 398 nM | 3.88 nM
3 | RD (rhodostomin variant ^48PRLDMP^53) | 433 nM | 3.32 nM
